A mixed list of measured activities; the numbers were collected in NIAID ChemDB.

Shared fields: growth or infection tests

ECn is the concentration giving n% inhibition of infection, replication or growth. An empty or dashed field is not shown. Zone: diameter of growth inhibition. Fold resistance: result on the changed form divided by that on wild type. A number after MIC or MFC names an inhibition level or a share of isolates. Rows are shuffled and stem from different studies. Percent inhibition refers to the dose given; in toxicity tests it is the harm to the cells.

smiles,agent,strain,mutations,cells,method,read-out,dose,value
CC1COc2c(N3CCN(C)CC3)c(F)cc3c(=O)c(C(=O)O)cn1c23,Enterococcus faecium,10 strains,-,-,-,MIC50,-,2 µg/mL
Nc1nccc2c1ncn2[C@@H]1C[C@H](CO)[C@@H](O)[C@H]1O,Vesicular stomatitis virus,-,-,PRK,cytopathic effect,EC50,-,0.2 µg/mL
O=c1[nH]cnc2c1ncn2[C@H]1CC[C@@H](CO)O1,HIV-1,HXB2,RT-L74V Y181C,HT4 + HT4 LacZ-1,plaque count,EC50,-,8.9 µM
O=c1c(O)c(-c2ccc(O)c(O)c2)oc2cc(O)cc(O)c12,Candida tropicalis,Clinical isolate 2,-,-,broth dilution,MIC50,-,>128 µg/mL
CCN(CC)CCCC(C)Nc1c2ccc(Cl)cc2nc2ccc(OC)cc12,Encephalitozoon intestinalis,-,-,RK-13,-,inhibition,0.01 µg/mL,0%
C#CC[C@@H](C(=O)N[C@H](/C=C/C(=O)OCC)C[C@@H]1CCNC1=O)n1cccc(NC(=O)c2cc(C)on2)c1=O,Rhinovirus,Serotype 16,-,H1-HELA,cytopathic effect / XTT,EC50,-,0.038 µM
CO[C@H]1[C@@H](OC(=O)/C=C/C=C/C=C/C=C/C(=O)O)CC[C@@]2(CO2)[C@@H]1[C@@]1(C)O[C@@H]1CC=C(C)C,Vittaforma corneae,-,-,RK-13,-,inhibition,0.0005 µg/mL,38.4%
Nc1nc(=O)n2ccn([C@@H]3O[C@H](CO)[C@@H](O)[C@H]3O)c2n1,West Nile virus,New York isolates,-,VERO,cytopathic effect,EC50,-,8 µg/mL
COc1ccc2cc3[n+](cc2c1OC)CCc1cc2c(cc1-3)OCO2,Encephalitozoon intestinalis,-,-,RK-13,-,inhibition,10 µg/mL,56.4%
Cc1ncc([N+](=O)[O-])n1CCO,Encephalitozoon cuniculi,-,-,MRC-5 fibroblasts,cytopathic effect,EC50,-,<50 µg/mL
CCC[C@H](NC(=O)[C@@H]1[C@H]2CCC[C@H]2CN1C(=O)[C@@H](NC(=O)[C@@H](NC(=O)c1cnccn1)C1CCCCC1)C(C)(C)C)C(=O)C(=O)NC1CC1,Hepatitis C virus,SA13,-,Huh7.5,antigen,EC50,-,1.202 µM
COc1ccc(OC)c(Cc2cnc3nc(N)nc(N)c3c2C)c1,Encephalitozoon cuniculi,-,-,MRC-5 fibroblasts,cytopathic effect,inhibition,5 µg/mL,0%
COc1cc(NCc2cnc3nc(N)nc(N)c3c2C)cc(OC)c1OC,Encephalitozoon intestinalis,-,-,RK-13,-,inhibition,1 µg/mL,81.8%
CCN(CC)CCCC(C)Nc1ccnc2cc(Cl)ccc12,Encephalitozoon cuniculi,-,-,MRC-5 fibroblasts,cytopathic effect,inhibition,10 µg/mL,29%
Nc1cc(OC[C@H](CO)OCP(=O)(O)O)nc(N)n1,Adenovirus,TYPE 2,-,HEL,cytopathic effect,EC50,-,5.4 µM
COc1cc(C[C@H](C)[C@H](C)Cc2ccc(O)c(O)c2)ccc1O,Candida krusei,CCC 117-2000,-,-,broth dilution,MIC80,-,125 µg/mL
CC[C@H]1OC(=O)[C@H](C)[C@@H](O[C@H]2C[C@@](C)(OC)[C@@H](O)[C@H](C)O2)[C@H](C)[C@@H](O[C@@H]2O[C@H](C)C[C@H](N(C)C)[C@H]2O)[C@](C)(O)C[C@@H](C)CN(C)[C@H](C)[C@@H](O)[C@]1(C)O,Encephalitozoon cuniculi,-,-,MRC-5 fibroblasts,cytopathic effect,inhibition,200 µg/mL,50%
Nc1ncnc2c1ncn2C[C@@H](CO)OCP(=O)(O)O,Adenovirus,TYPE 2,-,HEL,-,EC50,-,1.38 µM
Nc1ccc(S(=O)(=O)Nc2ncccn2)cc1,Toxoplasma gondii,-,-,-,-,inhibition,1 µg/mL,40%
CC(=O)Oc1ccccc1C(=O)Nc1ncc([N+](=O)[O-])s1,Vittaforma corneae,-,-,RK-13,-,inhibition,0.01 µg/mL,25.7%
CC(=O)NC[C@H]1CN(c2ccc(N3CCN(C(=O)CO)CC3)c(F)c2)C(=O)O1,Streptococcus pneumoniae,Penicillin-susceptible,-,-,-,MIC50,-,0.5 µg/mL
CC1(C)[C@@H](O[C@H]2O[C@H](C(=O)O)[C@@H](O)[C@H](O)[C@H]2O[C@@H]2O[C@H](C(=O)O)[C@@H](O)[C@H](O)[C@H]2O)CC[C@]2(C)[C@H]3C(=O)C=C4[C@@H]5C[C@@](C)(C(=O)O)CC[C@]5(C)CC[C@@]4(C)[C@]3(C)CC[C@@H]12,Dengue virus,Type 1 (Hawaii),-,VERO,cytopathic effect,EC50,-,450 µg/mL
CCOC(=O)Nc1cc2oc(=O)c(-c3ccccc3)nc2c(N)n1,Encephalitozoon intestinalis,-,-,RK-13,-,inhibition,1 µg/mL,37.2%
NC(=O)c1ncn([C@@H]2O[C@H](CO)[C@@H](O)[C@H]2O)n1,Respiratory syncytial virus,SM61-48,-,HEP-2,plaque count,EC50,-,7.67 µM
O=c1[nH]c(=O)n([C@H]2C[C@H](O)[C@@H](CO)O2)cc1/C=C/Br,Epstein-Barr virus,-,-,P3HR-1,-,inhibition,0.01 µM,4%
CN(C)[C@@H]1C(=O)C(C(N)=O)=C(O)[C@@]2(O)C(=O)C3=C(O)c4c(O)c(NC(=O)CNC(F)(F)F)cc(F)c4C[C@H]3C[C@@H]12,Enterococcus faecalis,103-29212,-,-,agar diffusion,EC50,-,2 µg/mL
Cc1cn([C@H]2C[C@H](F)[C@@H](CO)O2)c(=O)[nH]c1=O,Adenovirus,TYPE 2,-,HEL,-,EC50,-,0.71 µM
CO[C@H]1/C=C/O[C@@]2(C)Oc3c(C)c(O)c4c(O)c(c5c(c4c3C2=O)NC2(CCN(CC(C)C)CC2)N=5)=NC(=O)/C(C)=C\C=C\[C@H](C)[C@H](O)[C@@H](C)[C@@H](O)[C@@H](C)[C@H](OC(C)=O)[C@@H]1C,Encephalitozoon cuniculi,-,-,MRC-5 fibroblasts,cytopathic effect,EC50,-,>20 µg/mL
CCCN(CCC)c1c([N+](=O)[O-])cc(C(F)(F)F)cc1[N+](=O)[O-],Toxoplasma gondii,RH,-,-,-,EC50,-,0.5 µM
O=c1[nH]cc(F)c(=O)[nH]1,Encephalitozoon cuniculi,-,-,MRC-5 fibroblasts,cytopathic effect,EC50,-,<2 µg/mL
Nc1ncnc2c1ncn2C[C@H](O)CO,Epstein-Barr virus,-,-,P3HR-1,-,inhibition,1 µM,4%
C[C@H]1COc2c(N3CCN(C)CC3)c(F)cc3c(=O)c(C(=O)O)cn1c23,Streptococcus pneumoniae,1C1 (PARC mutation SER79TYR),-,-,-,MIC,-,2 µg/mL
O=C(O)c1cc2oc3ccccc3c2cc1O,Rhinovirus,TYPE 16,-,HELA-H1,plaque count,inhibition,20 µM,85%
Nc1ccn([C@@H]2CS[C@H](CO)O2)c(=O)n1,Adenovirus,TYPE 2,-,HEL,-,EC50,-,>250 µM
CO[C@H]1[C@@H](OC(=O)/C=C/C=C/C=C/C=C/C(=O)O)CC[C@@]2(CO2)[C@@H]1[C@@]1(C)O[C@@H]1CC=C(C)C,Encephalitozoon cuniculi,-,-,MRC-5 fibroblasts,cytopathic effect,inhibition,0.1 µg/mL,100%
CC(C)(CO)C(=O)SCCOP(=O)(NCc1ccccc1)OC[C@H]1O[C@@H](n2cnc3c(=O)[nH]c(N)nc32)[C@](C)(O)[C@@H]1O,Hepatitis C virus,GT1a,Q30K,Replicon cells,replicon,fold resistance,-,0.89
Nc1nc2c(ncn2C[C@]2(CO)C[C@H]2CO)c(=O)[nH]1,Adenovirus,TYPE 2,-,HEL,-,EC50,-,267 µM
CC(C)(C)OC(=O)N[C@@H]1CCCCC/C=C\[C@@H]2C[C@@]2(C(=O)NS(=O)(=O)C2CC2)NC(=O)[C@@H]2C[C@@H](OC(=O)N3Cc4cccc(F)c4C3)CN2C1=O,Hepatitis C virus,S52,-,Huh7.5,antigen,EC50,-,0.894 µM
CCO/N=C/c1ccc(OCCC2CCN(c3ccc(C)nn3)CC2)cc1,Rhinovirus,211-CV13 (ICAM-1 receptor group 9),-,KB,neutral red,EC50,-,0.008 µM
COc1cc(OC)cc(N(C)Cc2cnc3nc(N)nc(N)c3c2C)c1,Encephalitozoon intestinalis,-,-,RK-13,-,inhibition,1 µg/mL,72.5%
CO[C@H]1/C=C/O[C@@]2(C)Oc3c(C)c(O)c4c(O)c(c(/C=N/N5CCN(C)CC5)c(O)c4c3C2=O)NC(=O)/C(C)=C\C=C\[C@H](C)[C@H](O)[C@@H](C)[C@@H](O)[C@@H](C)[C@H](OC(C)=O)[C@@H]1C,Staphylococcus aureus,209P,-,-,-,MIC,-,0.0078 µg/mL
O=c1c2ccccc2ccc2ccccc12,Rhinovirus,TYPE 16,-,HELA-H1,plaque count,inhibition,50 µM,100%
CO[C@H]1/C=C/O[C@@]2(C)Oc3c(C)c(O)c4c(=O)c(c5oc6cc(N7CCN(CC(C)C)CC7)cc(=O)c6nc5c4c3=C2O)NC(=O)/C(C)=C\C=C\[C@H](C)[C@H](O)[C@@H](C)[C@@H](O)[C@@H](C)[C@H](OC(C)=O)[C@@H]1C,Staphylococcus aureus,20 strains (methicillin-susceptible),-,-,-,MIC90,-,0.016 µg/mL
COc1cc2oc(=O)ccc2cc1CC(O)C(C)(C)O,Klebsiella pneumoniae,-,-,-,agar diffusion,zone,250 µg/disc,0 mm
OC1c2ccccc2C=Cc2ccccc21,Rhinovirus,TYPE 16,-,HELA-H1,plaque count,inhibition,50 µM,80%

A second listing of 5 rows from above:

smiles,agent,strain,mutations,cells,method,read-out,dose,value
COc1ccc2cc3[n+](cc2c1OC)CCc1cc2c(cc1-3)OCO2,Encephalitozoon intestinalis,-,-,RK-13,-,inhibition,10 µg/mL,56.4%
CCC[C@H](NC(=O)[C@@H]1[C@H]2CCC[C@H]2CN1C(=O)[C@@H](NC(=O)[C@@H](NC(=O)c1cnccn1)C1CCCCC1)C(C)(C)C)C(=O)C(=O)NC1CC1,Hepatitis C virus,SA13,-,Huh7.5,antigen,EC50,-,1.202 µM
CO[C@H]1[C@@H](OC(=O)/C=C/C=C/C=C/C=C/C(=O)O)CC[C@@]2(CO2)[C@@H]1[C@@]1(C)O[C@@H]1CC=C(C)C,Encephalitozoon cuniculi,-,-,MRC-5 fibroblasts,cytopathic effect,inhibition,0.1 µg/mL,100%
CC(=O)Oc1ccccc1C(=O)Nc1ncc([N+](=O)[O-])s1,Vittaforma corneae,-,-,RK-13,-,inhibition,0.01 µg/mL,25.7%
CCOC(=O)Nc1cc2oc(=O)c(-c3ccccc3)nc2c(N)n1,Encephalitozoon intestinalis,-,-,RK-13,-,inhibition,1 µg/mL,37.2%